# Measurements published in PubChem BioAssay AID504863 (Sanford-Burnham Center for Chemical Genomics, 2011).
# The entries are a selection whose mix differs from that of the whole data set. Active and inactive are the calls of the source.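 Rule for the calls: active = inhibition averaging 50% or more, tested at 20 µM; inactive = the rest.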
# Tested on: diaphorase (Clostridium kluyveri)
# Test: C. kluyveri diaphorase inhibition, resazurin coupling – biochemical, fluorescence intensity, 30 µM NADPH, counter-screen for P. falciparum G6PD inhibitor project, confirmation (AID 504863);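 note: 0% = DMSO with enzyme and 100% = DMSO wells lacking diaphorase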
# Conditions: Diaphorase/resazurin coupled assay, resorufin fluorescence, at 20 µM, stronger effect = higher value
structure (smiles),measurement,value
O=[N+]([O-])c1cc([N+](=O)[O-])c(Nc2ccccn2)c([N+](=O)[O-])c1,inhibition,active: 51%
